Pooled drug test results. Numbers come from NIAID ChemDB, via PubChem.

All rows: enzyme or target tests

Inhibition is in % at the dose shown (toxicity tests: loss of growth or viability). Rows are shuffled and stem from different studies. Blank or dashed fields: not listed here. ICn: concentration for n% inhibition. a–b is a range or a potency band. Fold resistance: result on the changed form divided by that on wild type.

smiles	target	changes	measure	tested at	organism	strain or isolate	method	value
O=C1c2c(O)cc(O)cc2O[C@H](c2ccc(O)cc2)[C@H]1O	gp120		inhibition	20 µg/mL	HIV-1		ELISA	80%
O=C(NCCCN1CCN(CCCNC(=O)c2cc3cc(O)c(O)cc3[nH]2)CC1)c1cc2cc(O)c(O)cc2[nH]1	RNase H + Reverse transcriptase		IC50		HIV-1		RNase H / fluorescence	>100 µM
Cc1cn([C@@H]2O[C@H](CO[Si](C)(C)C(C)(C)C)C3(OS(=O)(=O)C=C3N)[C@H]2O[Si](C)(C)C(C)(C)C)c(=O)n(C)c1=O	Reverse transcriptase	RT-N137H	fold resistance		HIV		nucleotide incorporation / radiometric	0.63
Nc1nc2c(ncn2[C@H]2CC[C@@H](COP(=O)(O)OP(=O)(O)OP(=O)(O)O)O2)c(=O)[nH]1	Reverse transcriptase	RT-E138K	fold resistance		HIV		nucleotide incorporation	7.61
CC[C@H](C)/C=C(C)/C=C/C1=CC2=CC(=O)[C@]3(C)OC(=O)[C@@H](C(C)=O)[C@@H]3C2=CO1	gp120		IC50		HIV-1		ELISA	114 µM
CC(C)[C@H](NC(=O)OCc1ccccn1)C(=O)N[C@@H](Cc1ccccc1)[C@H](O)[C@H](O)[C@H](Cc1ccccc1)NC(=O)OC(C)(C)C	Protease		IC50		HIV-1		fluorescence	<0.005 µM
CC(C[C@H](NC(=O)COc1cccc2cnccc12)C(=O)N[C@@H](Cc1ccccc1)[C@H](O)C(=O)N1CSC[C@H]1C(=O)NC(C)(C)C)C(F)(F)F	Protease		IC50		HIV		HPLC	0.0063 µg/mL
CC(C)[C@H](NC(=O)OCCN1CCOCC1)C(=O)N[C@@H](Cc1ccccc1)[C@@H](O)[C@H](Cc1ccccc1)NC(=O)[C@@H](NC(=O)OCc1ccccc1)C(C)C	Protease		inhibition	0.005 µM	HIV-1		fluorescence	40%
Oc1[nH]c2ccc(Cl)cc2c1N=Nc1nc(-c2ccc(F)cc2F)cs1	RNase H		IC50		HIV-1		RNase H / fluorescence	6 µM
O=c1cc(-c2ccccc2)oc2cc(O)cc(O)c12	gp120		inhibition	10 µg/mL	HIV-1	IIIB	ELISA	0%
Cc1cccc(C)c1OCC(=O)N[C@@H](Cc1ccccc1)[C@H](OC(=O)CCC(=O)NCCC(=O)OC[C@H]1O[C@@H](n2cc(C)c(=O)[nH]c2=O)C[C@@H]1N=[N+]=[N-])C(=O)N1CSC(C)(C)[C@H]1C(=O)NC(C)(C)C	Protease + Reverse transcriptase		IC50		HIV-1			>5 µM
CC(=O)c1ccc(C)cc1NC(C(N)=O)c1c(Cl)cccc1Cl	Reverse transcriptase	RT-S102L	IC50		HIV-2	EHO	nucleotide incorporation	>1425 µM
O=[N+]([O-])c1cc(S(=O)(=O)c2ccc(S)c([N+](=O)[O-])c2)ccc1S	Integrase		IC50		HIV-2		strand transfer	2.2 µM
CC(C)[C@H](NC(=O)OCc1ccccn1)C(=O)N[C@@H](Cc1ccccc1)[C@H](O)[C@H](O)[C@H](Cc1ccccc1)NC(=O)CCC(=O)O	Protease		IC50		HIV-1		fluorescence	<0.01 µM
CC(=O)O[C@H]1c2c(c3c(c4c(-c5ccccc5)cc(=O)oc24)OC(C)(C)C=C3)O[C@H](C)[C@H]1C	Reverse transcriptase	RT-Y181C	IC50		HIV-2		scintillation proximity / radiometric	0.21 µM
Nc1nc2c(ncn2[C@H]2CC[C@@H](COP(=O)(O)OP(=O)(O)OP(=O)(O)O)O2)c(=O)[nH]1	Reverse transcriptase	RT-N137Y	fold resistance		HIV		nucleotide incorporation / radiometric	24
O=NNc1ccc(S(=O)(=O)c2ccc(NN=O)cc2)cc1	Integrase		IC50		HIV-2		3′ processing	20 µM
C=C(C)[C@@H]1CC[C@]2(C(=O)O)CC[C@]3(C)[C@H](CC[C@@H]4[C@@]5(C)CC[C@H](O)C(C)(C)[C@@H]5CC[C@]43C)[C@@H]12	RNase H		IC50		HIV-1		fluorescence	2 µM
CN(C)CCCNC(=O)c1cc(NC(=O)c2cc(NC(=O)c3cc(NC(=O)c4ccc(C(=O)Nc5cc(C(=O)Nc6cc(C(=O)Nc7cc(C(=O)NCCCN(C)C)n(C)c7)n(C)c6)n(C)c5)nc4)cn3C)cn2C)cn1C	Integrase		IC50		HIV-2		3′ processing	0.37 µM
Nc1ncnc2c1ncn2[C@H]1C[C@H](O)[C@@H](COP(=O)(O)O)O1	RNase H		IC50		HIV			3000 µM
O=C(CCc1ccccc1)C(F)(F)Cc1ccccc1	Protease		inhibition	270 µM	HIV-1		fluorescence	94%
Cc1cccc(C)c1OCC(=O)N[C@@H](Cc1ccccc1)[C@H](OC(=O)CCCC(=O)NCC(=O)OC[C@H]1O[C@@H](n2cc(C)c(=O)[nH]c2=O)C[C@@H]1N=[N+]=[N-])C(=O)N1CSC(C)(C)[C@H]1C(=O)NC(C)(C)C	Protease + Reverse transcriptase		IC50		HIV-1			<5 µM
CC(=O)N[C@H](C(=O)N[C@H](C(=O)NC(Cc1ccccc1)C(O)C(O)C(Cc1ccccc1)NCc1ccccc1)C(C)C)C(C)C	Protease		inhibition	270 µM	HIV-1		fluorescence	100%
CC[C@H]1C(=O)Nc2ccc(F)cc2N1C(=O)OC(C)C	Reverse transcriptase	RT-P140A	IC50		HIV		nucleotide incorporation / radiometric	0.01 µM
O=C(O[C@@H]1Cc2c(O)cc(O)cc2O[C@@H]1c1ccc(O)c(O)c1)c1cc(O)c(O)c(O)c1	gp120		inhibition	0.4 µg/mL	HIV-1	IIIB	ELISA	11%
O=c1c(O[C@@H]2O[C@H](CO)[C@@H](O)[C@H](O)[C@H]2O)c(-c2ccc(O)cc2)oc2cc(O)cc(O)c12	gp120		inhibition	9 µg/mL	HIV-1		binding	~29%
N#CC(C#N)=NNc1ccc(S(=O)(=O)c2ccc(NN=C(C#N)C#N)cc2)cc1	Integrase		IC50		HIV-2		3′ processing	38.3 µM
COc1ccccc1-c1noc(=O)n1-c1cccc(C(F)(F)F)c1	p17		IC50		HIV-1		PCR	~1 µM
O=C(O)C1=C[C@@H](O)[C@@H](O)[C@H](O)C1	RNase H		IC50		HIV-1		fluorescence	>100 µM
Cc1cn([C@@H]2O[C@H](CO[Si](C)(C)C(C)(C)C)C3(OS(=O)(=O)C=C3N)[C@H]2O[Si](C)(C)C(C)(C)C)c(=O)n(C)c1=O	Reverse transcriptase	RT-V106A	IC50		HIV		nucleotide incorporation	>750 µM
CNC(=O)[C@@H](NC(=O)[C@H](OCc1ccccc1)[C@H](O)[C@@H](O)[C@@H](OCc1ccccc1)C(=O)N[C@H]1c2ccccc2C[C@H]1O)C(C)C	Protease	PR-G48V	fold resistance		HIV			1.07
COC(=O)C(Cc1ccccc1)NC(=O)[C@@H](NC(=O)[C@@H](C[C@H](O)[C@H](CC1CCCCC1)NC(=O)[C@@H](NC(=O)[C@H](Cc1ccccc1)CS(=O)(=O)C(C)(C)C)C(C)C)C(C)C)C(C)C	Reverse transcriptase	RT-S102L	IC50		HIV-2	EHO	nucleotide incorporation	>1553 µM
O=C(/C=C/c1ccc(O)cc1)OC[C@H]1O[C@@H](Oc2c(-c3ccc(O)cc3)oc3cc(O)cc(O)c3c2=O)[C@H](O)[C@@H](O)[C@@H]1O	gp120		inhibition	30 µg/mL	HIV-1		binding	~58%
CC(C)(C)OC(=O)NCCC(=O)Nc1cccc(C(c2c(O)c3c(oc2=O)CCCCCC3)C2CC2)c1	Protease		Ki		HIV-2			0.016 µM
Cc1cn([C@H]2C=C[C@@H](COP(=O)(O)OP(=O)(O)OP(=O)(O)O)O2)c(=O)[nH]c1=O	Reverse transcriptase	RT-L74V	fold resistance		HIV-1		nucleotide incorporation / radiometric	1.11
O=Cc1cc(S(=O)(=O)c2ccc(O)c(C=O)c2)ccc1O	Integrase		IC50		HIV-2		strand transfer	0.8 µM
CCC(c1cccc(NC(=O)CNC(=O)OC(C)(C)C)c1)c1c(O)c2ccccc2oc1=O	Protease		Ki		HIV-2		substrate cleavage	0.037 µM
Nc1ncc2[nH]cnc2n1	Tat:TAR/LTR		Ki		HIV-1	LAV		6 µM
O=C1c2ccccc2[Se](=O)N1c1ccccc1	Capsid		IC50		HIV-1		FRET / fluorescence	0.0512 µM
Cc1cc(SC2=C(O)C[C@@](CCc3ccc(O)cc3)(C(C)C)OC2=O)c(C(C)(C)C)cc1N	Protease		inhibition	10 µM	HIV		HPLC	3.2%
COc1cc2c(cc1OC)[C@H](c1cc(OC)c(OC)c(OC)c1)[C@@H](C)[C@@H](C)C2	RNase H		IC50		HIV-1		RNase H	>10 µM
O=C(NCCc1ccc(O)c(O)c1)c1cc2cc(O)c(O)cc2[nH]1	RNase H + Reverse transcriptase	Reverse transcriptase W535A	IC50		HIV-1		RNase H / fluorescence	>100 µM
Nc1ncnc2c1ncn2[C@H]1CC[C@@H](COP(=O)(O)OP(=O)(O)OP(=O)(O)O)O1	Reverse transcriptase	RT-A62V V75I F77L F116Y Q151M	fold resistance		HIV-1		nucleotide incorporation / radiometric	17.4
CC(C)[C@H](NC(=O)OCc1ccccn1)C(=O)N[C@@H](Cc1ccccc1)[C@H](O)[C@H](O)[C@H](Cc1ccccc1)NC(=O)[C@@H](NC(=O)OCc1ccccn1)C(C)C	Protease		inhibition	0.001 µM	HIV-1		fluorescence	78%
Cc1c(C(C)c2c(F)cccc2F)nc(NC2CCCC2)[nH]c1=O	Reverse transcriptase	V179D	IC50		HIV		nucleotide incorporation / radiometric	0.3 µM
Nc1ncnc2c1ncn2CCOCP(=O)(O)OP(=O)(O)OP(=O)(O)O	Reverse transcriptase	RT-L74V	fold resistance		HIV-1		nucleotide incorporation / radiometric	2.05
CC(C)Nc1cccnc1N1CCN(C(=O)c2cc3ccccc3[nH]2)CC1	Reverse transcriptase	RT-G190E	fold resistance		HIV		nucleotide incorporation	314
O=C1N(Cc2ccc(CO)cc2)[C@H](COc2ccccc2)[C@H](O)[C@@H](O)[C@@H](COc2ccccc2)N1Cc1ccc(CO)cc1	Protease	PR-V82A	fold resistance		HIV		fluorescence	1.04
CC[C@H](C)C=C(C)/C=C/C1=CC2=C(Cl)C(=O)[C@]3(C)OC(=O)[C@@H](C(C)=O)[C@@H]3C2=CO1	gp120		IC50		HIV-1		ELISA	6.6 µM
CCOCn1c(Cc2ccccc2)c(C(C)C)c(=O)[nH]c1=O	Reverse transcriptase	RT-E219D	IC50		HIV-2	EHO	nucleotide incorporation	>1656 µM
CCCCCCCCCCCCCCCC(=O)N[C@H](C(=O)N[C@H](C(=O)N[C@@H](CO)C(=O)N[C@@H](Cc1ccc(O)cc1)C(=O)N[C@@H](CCC(=O)O)C(=O)N[C@@H](CC(C)C)C(=O)O)C(C)C)[C@@H](C)O	Protease		IC50		HIV			0.5 µM
O=S(=O)(SC(Cl)(Cl)Cl)c1cccc(S(=O)(=O)c2cccc(S(=O)(=O)SC(Cl)(Cl)Cl)c2)c1	Integrase		IC50		HIV-2		3′ processing	38 µM
CCc1c(Sc2ccccn2)n(COCc2ccccc2)c(=O)[nH]c1=O	Reverse transcriptase	RT-V106A	inhibition	50 µM	HIV-1			60%
CC(C)C[C@H](NC(=O)C(Cc1ccccc1)C[C@H](O)[C@H](Cc1ccccc1)NC(=O)[C@H](Cc1ccccc1)NC(=O)[C@H](Cc1ccccc1)NC(=O)OC(C)(C)C)C(=O)N[C@@H](Cc1ccccc1)C(N)=O	Protease		inhibition	100 µM	HIV			0.1–100%
CC(C)(C)NC(=O)[C@@H]1CSCN1C(=O)[C@@H](O)[C@H](Cc1ccccc1)NC(=O)[C@H](CCC(F)(F)F)NC(=O)COc1cccc2cnccc12	Protease		IC50		HIV		HPLC	0.0027 µg/mL
N#C/C(=C\c1ccc(Br)nc1)c1nc2ccccc2[nH]1	Vif		IC50		HIV-1			1.01 µM
CO[P@](=O)(c1cc(C)cc(/C=C/C#N)c1)c1c(C(N)=O)[nH]c2ccc(Cl)cc12	Reverse transcriptase	Y181C/K103	IC50		HIV			1.614 µM
O=C1c2c(O)cc(O[C@@H]3C[C@@H](O)[C@H](O)[C@@H](CO)O3)cc2O[C@H](c2ccc(O)cc2)[C@H]1O	gp120		IC50		HIV-1		ELISA	<80 µg/mL
CNC(=O)c1cccc(CN2[C@H](COc3ccccc3)[C@H](O)[C@@H](O)[C@@H](COc3ccccc3)N(Cc3cccc(C(=O)NC)c3)S2(=O)=O)c1	Protease	PR-V82A	fold resistance		HIV-1			10

A second listing of 8 rows from above:

smiles	target	changes	measure	tested at	organism	strain or isolate	method	value
Nc1ncc2[nH]cnc2n1	Tat:TAR/LTR		Ki		HIV-1	LAV		6 µM
CC(C)(C)NC(=O)[C@@H]1CSCN1C(=O)[C@@H](O)[C@H](Cc1ccccc1)NC(=O)[C@H](CCC(F)(F)F)NC(=O)COc1cccc2cnccc12	Protease		IC50		HIV		HPLC	0.0027 µg/mL
O=C(O)C1=C[C@@H](O)[C@@H](O)[C@H](O)C1	RNase H		IC50		HIV-1		fluorescence	>100 µM
CCC(c1cccc(NC(=O)CNC(=O)OC(C)(C)C)c1)c1c(O)c2ccccc2oc1=O	Protease		Ki		HIV-2		substrate cleavage	0.037 µM
CCCCCCCCCCCCCCCC(=O)N[C@H](C(=O)N[C@H](C(=O)N[C@@H](CO)C(=O)N[C@@H](Cc1ccc(O)cc1)C(=O)N[C@@H](CCC(=O)O)C(=O)N[C@@H](CC(C)C)C(=O)O)C(C)C)[C@@H](C)O	Protease		IC50		HIV			0.5 µM
CC(C)C[C@H](NC(=O)C(Cc1ccccc1)C[C@H](O)[C@H](Cc1ccccc1)NC(=O)[C@H](Cc1ccccc1)NC(=O)[C@H](Cc1ccccc1)NC(=O)OC(C)(C)C)C(=O)N[C@@H](Cc1ccccc1)C(N)=O	Protease		inhibition	100 µM	HIV			0.1–100%
O=C(CCc1ccccc1)C(F)(F)Cc1ccccc1	Protease		inhibition	270 µM	HIV-1		fluorescence	94%
CC(=O)O[C@H]1c2c(c3c(c4c(-c5ccccc5)cc(=O)oc24)OC(C)(C)C=C3)O[C@H](C)[C@H]1C	Reverse transcriptase	RT-Y181C	IC50		HIV-2		scintillation proximity / radiometric	0.21 µM